Results as given in patent publication US12258540B2, “Environmentally compatible detergents for inactivation of lipid-enveloped viruses” (TAKEDA PHARMACEUTICAL COMPANY LIMITED, priority 2017, dated 2025).
Read-outs that look alike come from different tables or passages of the source.

Legend:
[1] = system: bovine viral diarrhea virus (BVDV); conditions: single detergent 0.1%±0.01%, buffer containing HSA, 14° C.±1° C., within 5 minutes
[2] = system: xenotropic murine leukemia virus (X-MuLV); conditions: S/D mixture with PS80 and TnBP, HSA-containing liquid

“4-tert-octylbenzyl alcohol polyethoxylate” was tested, and the “virus reduction factor (RF), BVDV” value [1] was “around 5”, the “virus reduction factor (RF), X-MuLV” value ([2]; 0.08%-0.1% detergent, 19° C.±1° C., within 10 minutes) was “over 2” and the “virus reduction factor (RF), X-MuLV” value ([2]; 0.1% detergent, 1° C.±1° C., within 10 minutes) was “over 2”. The “virus reduction factor (RF), X-MuLV” value ([2]; 0.1% detergent, 19° C.±1° C., within 30 min) was “around 4”.
